Anti-infective test results gathered from many reports (values: NIAID ChemDB through PubChem).

Common to all: tests in culture; species: Mycobacterium tuberculosis

A number after MIC or MFC names an inhibition level or a share of isolates.

structure	strain	cells	method	endpoint	dose	value
Nc1ncc(Cc2ccc(OCCc3ccccc3)cc2)c(N)n1	H37Rv	-	-	MIC	-	100 µM
Cc1ccc(C2=N/C(=C/c3ccccc3)C(=O)O2)cc1	H37Rv	-	resazurin	MIC	-	16 µg/mL
Cc1c(CN2CCN(C)CC2)cc(-c2ccc(Cl)cc2)n1-c1ccc(Cl)cc1	CIP6431	-	-	MIC	-	1.5 µg/mL
CC(=O)NC[C@H]1CN(c2ccc(N3CCSCC3)c(F)c2)C(=O)O1	H37Rv	-	resazurin	inhibition	6.25 µg/mL	100%
CN1C(NNC(=O)c2cccnc2)=NS(=O)(=O)c2ccc(Cl)cc21	Clinical isolates drug-resistant	-	-	MIC	-	4–8 µg/mL
C=C1C(=O)OC2/C=C(/C)CC(O)/C=C(/CO)CC(OC(=O)/C(C)=C/C)C12	H37Rv	-	BACTEC	MIC bound	-	>12.5 µg/mL
CN1C(NNC(=O)c2ccncc2)=NS(=O)(=O)c2ccccc21	Clinical isolates drug-resistant	-	-	MIC	-	>16 µg/mL
CC1N=C(N)NC(c2ccc(Cl)cc2)=C1C(=O)Nc1ccc(S(=O)(=O)c2ccc(NC(=O)C3=C(c4ccc(Cl)cc4)NC(N)=NC3C)cc2)cc1	H37Rv	-	-	MIC	-	0.32 µM
Cc1ccc(N2C(=O)CS/C2=N/NC(=O)c2cc(-c3cc(F)cc(F)c3)ccc2O)cc1	H37Rv	-	BACTEC	inhibition	6.25 µg/mL	<90%
CN1C(NNC(=O)c2ccc(Cl)nc2)=NS(=O)(=O)c2ccccc21	Clinical isolates drug-sensitive	-	-	MIC	-	>16 µg/mL
COc1cc(Cc2cnc(/N=C3\C(=O)N(CN4CCN(c5c(OC)cc6c(c5F)c(=O)c(C(=O)O)cn6C5CC5)CC4C)c4ccc(C)cc43)nc2N)cc(OC)c1OC	H37Rv	-	-	MIC	-	100 µg/mL
CCOC(=O)C1=NN(c2ccccc2)C(=O)C1N=Nc1ccc(S(=O)(=O)Nc2cc(C)nc(C)n2)cc1	H37Rv	-	BACTEC	inhibition	12.8 µg/mL	11%
CCCCCCCCCCCCCCCCOc1ccc(Cc2cnc(N)nc2N)cc1OC	H37Rv	-	-	MIC	-	>68 µM
CCNC1Oc2cc(Cl)ccc2C(=O)/C1=C/Nc1ccc2[nH]c(=S)sc2c1	H37Rv	-	-	MIC	-	2.5 µg/mL
Nc1ccc(C(=O)O)c(O)c1	7800	-	-	inhibition	0.76 µM	74%
Oc1ccc(-c2cc(F)cc(F)c2)cc1-c1nnc(NC2CCCCC2)o1	H37Rv	-	BACTEC	inhibition	6.25 µg/mL	<90%
CCCCCOc1ccc(Cc2cnc(N)nc2N)cc1OC	H37Rv	-	-	MIC	-	50.6 µM
CC1(C)Cc2cc(O)c(-c3ccccc3)c(=O)n2C1	H37Ra	-	-	MIC	-	16 µg/mL
COc1ccc(/C=C2/N=C(c3ccc(C)cc3)OC2=O)cc1	H37Rv	-	resazurin	MIC	-	4 µg/mL
COC(=O)[C@@H]1[C@H](O)[C@H](C)C(O)[C@H](C)/C=C\C=C(/C)C(=O)Nc2c(C)c(OC(C)=O)c3c(c2O)C(=O)C(C)=C2OCOC(=C23)/C(C)=C/[C@@](C)(O)[C@H](O)[C@@H](C)[C@H]1OC(C)=O	PAS-R	-	-	MIC	-	6.3 µg/mL
CN1C(NC(=O)c2cnccn2)=NS(=O)(=O)c2cc(Cl)ccc21	Clinical isolates drug-sensitive	-	-	MIC	-	>16 µg/mL
CC1N=C(N)NC(c2ccccc2Cl)=C1C(=O)Nc1ccc(S(=O)(=O)c2ccc(NC(=O)C3=C(c4ccccc4Cl)NC(N)=NC3C)cc2)cc1	H37Rv	-	-	MIC	-	0.22 µM
COc1ccccc1N/N=c1\c2nc3ccccc3nc1n(-c1ccccc1C)c(=S)n2-c1ccccn1	H37Rv	-	BACTEC	MIC bound	-	>12.5 µg/mL
CCCCCCCOc1ccc(Cc2cnc(N)nc2N)cc1OC	H37Rv	-	-	MIC	-	23.2 µM
CCOC(=O)C(NC(=O)c1ccccc1)(N1CCN(c2cc3c(cc2F)c(=O)c(C(=O)O)cn3C2CC2)CC1)C(F)(F)F	H37Rv	-	resazurin	inhibition	6.25 µg/mL	99%
O=C(NN1C(=O)CSC1c1ccc(Cl)cc1)c1cc(-c2cc(F)cc(F)c2)ccc1O	H37Rv	-	BACTEC	inhibition	6.25 µg/mL	<90%
O=c1c(/C=N/c2nc3c(Cl)cccc3s2)coc2ccc(Cl)cc12	H37Rv	-	-	MIC	-	10 µg/mL
O=C1c2c(O)ccc(O)c2C(=O)c2c(NCCNCCO)ccc(NCCNCCO)c21	H37Rv	-	resazurin	MIC bound	-	>6.25 µg/mL
COc1ccc(C2=C(C(=O)Nc3ccc(S(=O)(=O)c4ccc(NC(=O)C5=C(c6ccc(OC)cc6)NC(N)=NC5C)cc4)cc3)C(C)N=C(N)N2)cc1	INH resistant	-	-	MIC	-	2.5 µM
COc1cc(Cc2cnc(N)nc2N)ccc1OCCCc1ccccc1	H37Rv	-	-	MIC	-	22 µM
COc1ccc(Nc2c3sc4cc(OC)ccc4nc-3c3ccccc3c2=O)cc1	H37Rv	-	BACTEC	inhibition	12.5 µg/mL	-23%
O=C(NN1C(=O)CSC1c1ccc(F)cc1)c1cc(-c2cc(F)cc(F)c2)ccc1O	H37Rv	-	BACTEC	inhibition	6.25 µg/mL	<90%
CCc1nc2cc(Cl)c(C)cn2c1C(=O)NCc1ccc(N2CCN(S(=O)(=O)C(F)(F)F)C=N2)c(F)c1	-	-	fluorescence	EC50	-	0.0055 µM
O=C(N/N=C/c1coc2ccccc2c1=O)c1ccncc1	H37Rv	-	-	MIC	-	10 µg/mL
COc1cc(Cc2cnc(/N=C3\C(=O)N(CN4CCCCC4)c4ccc(C)cc43)nc2N)cc(OC)c1OC	H37Rv	-	-	MIC	-	22 µg/mL
N#CCC(=O)N/N=C/c1coc2ccc([N+](=O)[O-])cc2c1=O	H37Rv	-	-	MIC	-	10 µg/mL
CCc1nc2ncc(Cl)cn2c1C(=O)NCc1ccc(N2CCN(S(=O)(=O)CC(C)C)C=N2)cc1	-	-	fluorescence	EC50	-	0.013 µM
COc1cc(Cc2cnc(/N=C3\C(=O)N(CN4CCN(c5ccc([N+](=O)[O-])cc5)CC4)c4ccc(C)cc43)nc2N)cc(OC)c1OC	H37Rv	-	-	MIC	-	30 µg/mL
COc1cc(Cc2cnc(N)nc2N)ccc1OCCc1ccccc1	H37Rv	-	-	MIC	-	34.2 µM
NNC(=O)c1ccncc1	H37Rv	-	luminescence	MIC	-	0.62 µM
O=C(NCc1ccc(N2CCN(S(=O)(=O)C(F)(F)F)C=N2)c(F)c1)c1c(C(F)F)nc2cnccn12	-	-	fluorescence	EC50	-	0.0646 µM
CCCNC(=O)NC1CC(=O)N(CCC)C1=O	H37Rv	-	BACTEC	inhibition	12.8 µg/mL	25%
CC1(C)Cc2cc(O)c(Cc3ccccc3)c(=O)n2C1	H37Ra	-	-	MIC	-	>128 µg/mL
Nc1ncc(Cc2ccc(OCCCc3ccccc3)cc2)c(N)n1	H37Rv	-	-	MIC	-	12 µM
O=C(O)[C@@]1(CCCCCCOc2ccc(Cl)cc2)CO1	H37Rv	-	visual reading	MIC	-	>250 µM
CCN1C(NNC(=O)c2ccncc2)=NS(=O)(=O)c2ccccc21	Clinical isolates drug-resistant	-	-	MIC	-	>16 µg/mL
CC(O)C1(O)C(O)CC(OC2c3cc4c(c(O)c3[C@@H]3C[C@@]2(C)OC32C=c3cc[nH]c3=N2)C(=O)c2cccc(O)c2C4=O)OC1C	H37Rv	-	BACTEC	inhibition	12.5 µg/mL	99%
N#CCC(=O)N/N=C/c1coc2ccccc2c1=O	H37Rv	-	-	MIC	-	10 µg/mL
NNC(=O)c1ccncc1	H37Rv	-	agar	MIC	-	0.66 µM
COc1c(O)c2c(c(C)c1C(=O)C=C(C)C)Oc1c(C=O)c(O)cc(C)c1C(=O)O2	-	-	-	MIC	-	49.9 µg/mL
Cn1cnc([N+](=O)[O-])c1C(N)=O	-	-	resazurin	inhibition	6.25 µg/mL	-2%
NNC(=O)c1ccncc1	H37Rv	-	visual reading	MIC	-	<0.3 µM
CCN1C(NNC(=O)c2cnccn2)=NS(=O)(=O)c2ccccc21	Clinical isolates drug-sensitive	-	-	MIC	-	8–16 µg/mL
CC(=O)c1ccc(NC(=O)/C(Cc2ccccn2)=N/NC(=O)C[N+](C)(C)C)cc1.[Cl-]	H37Rv	-	BACTEC	MIC bound	-	>12.5 µg/mL
CCOC(=O)c1c(O)c(Cc2ccccc2)c(=O)n2c1CCC2	H37Ra	-	-	MIC	-	256 µg/mL
CCOC(=O)C1=C(C)NC(SC)=NC1c1cn(-c2ccccc2)nc1-c1ccc(F)cc1	H37Rv	VERO	resazurin	inhibition	6.25 µg/mL	8%
COC1=CC2C(=NC(C)=C2C(=O)NCc2ccc(N3CCN(S(=O)(=O)C(F)(F)F)C(OC)=N3)cc2)N=C1	-	-	fluorescence	EC50	-	0.01 µM
O=C(NN1C(=O)CSC1c1occc1[N+](=O)[O-])c1cc(-c2cc(F)cc(F)c2)ccc1O	H37Rv	-	BACTEC	inhibition	6.25 µg/mL	<90%
O=C(NCc1cnc(N2CCN(S(=O)(=O)C(F)(F)F)C=N2)c(F)c1)c1c(C(F)(F)F)nc2ncc(Cl)cn12	-	-	fluorescence	EC50	-	0.501 µM
Nc1ncc(Cc2ccc(OCc3ccccc3)cc2)c(N)n1	H37Rv	-	-	MIC	-	26.1 µM
COc1cc(Cc2cnc(/N=C3\C(=O)N(CN4CCN(c5ccc(Cl)cc5)CC4)c4ccc(C)cc43)nc2N)cc(OC)c1OC	H37Rv	-	-	MIC	-	28 µg/mL
O=c1oc2c(Cc3ccccc3)c(=O)n3c(c2c(O)c1-c1ccccc1)CCC3	H37Ra	-	-	MIC	-	256 µg/mL
C[C@@H]1C[C@H]2CC[C@H](O2)[C@H](C)C(=O)O[C@@H](C)C[C@@H]2CC[C@@H](O2)[C@@H](C)C(=O)O[C@H](C)C[C@H]2CC[C@H](O2)[C@H](C)C(=O)O[C@@H](C)C[C@@H]2CC[C@@H](O2)[C@@H](C)C(=O)O1	H37Rv	-	BACTEC	MIC	-	12.8 µg/mL
Cc1ccc(C2SCC(=O)N2NC(=O)c2cc(-c3cc(F)cc(F)c3)ccc2O)cc1	H37Rv	-	BACTEC	inhibition	6.25 µg/mL	<90%
Nc1ccc(NCCNCCO)c2c(=O)c3ccccc3sc12	H37Rv	-	BACTEC	inhibition	12.5 µg/mL	69%
C=CCNC(=S)NNC(=O)c1cc(-c2cc(F)cc(F)c2)ccc1O	H37Rv	-	BACTEC	inhibition	6.25 µg/mL	<90%
CN(C)c1ccc(-c2nn(C)c3nc(=O)n(C)c(=O)c-3[n+]2[O-])cc1	H37Rv	-	BACTEC	inhibition	12.5 µg/mL	94%
COc1cc(C2=C(C(=O)Nc3ccc(S(=O)(=O)c4ccc(NC(=O)C5=C(c6cc(OC)c(OC)c(OC)c6)NC(N)=NC5C)cc4)cc3)C(C)N=C(N)N2)cc(OC)c1OC	H37Rv	-	-	MIC	-	1.56 µM
Cc1ccc2occ(/C=N/NC(=O)c3cc(O)c(O)c(O)c3)c(=O)c2c1	H37Rv	-	-	MIC	-	>100 µg/mL
O=C1C(Cl)=CC(=NS(=O)(=O)c2ccccc2)C=C1Cl	H37Rv	-	BACTEC	inhibition	12.5 µg/mL	-7%
Cc1ccc(C2=N/C(=C/c3ccc(C#N)cc3)C(=O)O2)cc1	H37Rv	-	resazurin	MIC	-	8 µg/mL
CC1(C)CCC[C@]2(C)[C@H]3C=C4C=C(O)C(=O)C=C4O[C@@]3(C)CC[C@@H]12	KM-R	-	-	MIC	-	12.5 µg/mL
CC(=O)c1ccc2oc3ccc4c(c3c2c1)CCC(C)(C)O4	H37Rv	-	broth dilution / resazurin	MIC95	-	340 µM
CO[C@H]1/C=C/O[C@@]2(C)Oc3c(C)c(OC(C)=O)c4c(c3C2=O)C(=O)C=C(NC(=O)/C(C)=C\C=C\[C@H](C)[C@H](O)[C@@H](C)[C@@H](O)[C@@H](C)[C@H](OC(C)=O)[C@@H]1C)C4=O	CS-R	-	-	MIC	-	0.03 µg/mL
CC(C)N1C(NNC(=O)c2cnccn2)=NS(=O)(=O)c2ccccc21	Clinical isolates drug-sensitive	-	-	MIC	-	>16 µg/mL
c1ccc2c(c1)NC(NC1Nc3ccccc3N1)N2	-	-	BACTEC	inhibition	0.5 µM	0%
Cc1ccc2occ(/C=N/c3nc4c(Cl)cccc4s3)c(=O)c2c1	H37Rv	-	-	MIC	-	25 µg/mL
CC(=O)OC1CC2CC1C/C2=N\Nc1ccc(C)cc1	H37Rv	-	BACTEC	inhibition	12.5 µg/mL	9%
Cc1ccc(C2=N/C(=C/c3ccc(Br)cc3)C(=O)O2)cc1	H37Rv	-	resazurin	MIC	-	32 µg/mL

Repeating the final 4 entries:

{"structure": "c1ccc2c(c1)NC(NC1Nc3ccccc3N1)N2", "method": "BACTEC", "endpoint": "inhibition", "dose": "0.5 µM", "value": "0%"}
{"structure": "Cc1ccc2occ(/C=N/c3nc4c(Cl)cccc4s3)c(=O)c2c1", "strain": "H37Rv", "endpoint": "MIC", "value": "25 µg/mL"}
{"structure": "CC(=O)OC1CC2CC1C/C2=N\\Nc1ccc(C)cc1", "strain": "H37Rv", "method": "BACTEC", "endpoint": "inhibition", "dose": "12.5 µg/mL", "value": "9%"}
{"structure": "Cc1ccc(C2=N/C(=C/c3ccc(Br)cc3)C(=O)O2)cc1", "strain": "H37Rv", "method": "resazurin", "endpoint": "MIC", "value": "32 µg/mL"}

MIC bound comes from a single tested concentration. Lines come from different laboratories, so protocols vary. Blank or dashed fields: not listed here. a–b is a range or a potency band. ECn: concentration that inhibits the pathogen or its effect by n%. Percent inhibition refers to the dose given; in toxicity tests it is the harm to the cells.